US20240109955A1 (published 2024)
Read-outs that look alike come from different tables or passages of the source.

Assays:
Assay in all cases: cell-based or functional assay
[1] = molecular target: SARS-CoV-2 Omicron BQ.1 spike protein (SARS-CoV-2, UniProt P0DTC2 14-1273)
[2] = molecular target: SARS-CoV-2 D614G spike protein mutant (SARS-CoV-2, UniProt P0DTC2 14-1273)
[3] = molecular target: SARS-CoV-2 Delta variant spike protein (SARS-CoV-2, UniProt P0DTC2 14-1273)
[4] = molecular target: SARS-CoV-2 spike protein, original Wuhan strain (WA1) (SARS-CoV-2, UniProt P0DTC2 14-1273)
[5] = molecular target: SARS-CoV-2 spike protein, Delta variant (SARS-CoV-2)
[6] = molecular target: SARS-CoV-2 spike protein, original Wuhan strain (WA1) (SARS-CoV-2, UniProt P0DTC2 14-1273); remark: listed apart in the source
[7] = molecular target: SARS-CoV-2 spike protein, D614G spike protein mutant (SARS-CoV-2, UniProt P0DTC2 14-1273)

B1: MX1029 (antibody)
chain: EIVLTQSPGTLSLSPGETATLSCRASQSFSSDLAWYQQKPGQAPRLLIYGASSRATGIPDRFSGSGSGTDFTLTISRLEPADFAVYYCQQYGSSPPVTFGGGTKVEIKGGSSGEIVLTQSPGTLSLSPGETATLSCRASQSFSSDLAWYQQKPGQAPRLLIYGASSRATGIPDRFSGSGSGTDFTLTISRLEPADFAVYYCQQYGSSPPVTFGGGTKVEIKGGGGSGGSGSGGGGSASGSGEVQLVESGGGLIQPGGSLRLSCAASGVIVSYNYMNWVRQAPGKGLEWVSVIYSGGSTFYADSVRGRFTISRDNSKNTLYLQMNSLRAEDTAVYYCARDLGPAGAFDIWGLGTMVTVSSGGSSGEVQLVESGGGLIQPGGSLRLSCAASGVIVSYNYMNWVRQAPGKGLEWVSVIYSGGSTFYADSVRGRFTISRDNSKNTLYLQMNSLRAEDTAVYYCARDLGPAGAFDIWGLGTMVTVSSASGGSGDKTHTCPPCPAPELLGGPSVFLFPPKPKDTLMISRTPEVTCVVVDVSHEDPEVKFNWYVDGVEVHNAKTKPREEQYNSYVVSVLTVLHQDWLNGKEYKCKVSNKALPAPIEKTISKAKGQPREPQVYTLPPSRDELTKNQVSLTCLVKGFYPSDIAVEWESNGQPENNYKTTPPVLDSDGSFFKKLTVDKSRWQQGNVFSCSVLHEALHSHYTQKSLSLSPG
For B1, the “IC50, pseudovirus neutralization” value [1] was 54.1 ng/mL, the “IC80, pseudovirus neutralization” value [1] was 69.4 ng/mL and the “IC50, pseudovirus neutralization” value [2] was 8.62 ng/mL. For the same binder, the “IC80, pseudovirus neutralization” value [2] was 34.1 ng/mL, the “IC50, pseudovirus neutralization” value [3] was 54.1 ng/mL and the “IC80, pseudovirus neutralization” value [3] was 69.4 ng/mL.

B2: E12 (antibody, V domains shown)
VH: EVQLVESGGGLIQPGGSLRLSCAASGVIVSYNYMNWVRQAPGKGLEWVSVIYSGGSTFYADSVRGRFTISRDNSKNTLYLQMNSLRAEDTAVYYCARDLGPAGAFDIWGLGTMVTVSS
VL: EIVLTQSPGTLSLSPGETATLSCRASQSFSSDLAWYQQKPGQAPRLLIYGASSRATGIPDRFSGSGSGTDFTLTISRLEPADFAVYYCQQYGSSPPVTFGGGTKVEIK
In the case of B2, the “IC80, pseudovirus neutralization” value [4] is reported as 118 ng/mL, the “IC50, pseudovirus neutralization” value [5] is reported as 17.2 ng/mL and the “IC80, pseudovirus neutralization” value [5] is reported as 32.1 ng/mL.

B3: MX1087 (antibody)
chain 1: QTVVTQEPSFSVSPGGTVTLTCGLSSGSVSTAYFPSWYQQTPGQAPRTLIYGTNTRSSGVPDRFSGSILGNKAALTITGAQADDESDYYCVLYMGRGIVVFGGGTKLTVLGGSSGEIVMTQSPAILSVSPGERATLSCRASQSVAINLAWYQQKPGQAPRLLIYAASSRATGIPGRFSGSGSETNFTLTISSLQSGDFAVYYCQQYITWPPSYTFGQGTKLEIKGGGGSGGSGSGGGGSASGSGEVQLVESGGALIQPGGSLRLSCAASGIIVSANYMSWVRQAPGKGLEWVSVIYSGGSTFYADSVKGRFTISRDNSKNTLYLEMNSLRAEDTAVYYCARDAPILGVSDWGQGTLVTVSSGGSSGQVQLVESGGGVVQPGRSLRLSCAASGFTLSSYGMHWVRQAPGKGLEWVAVISYDGSNKYYVDSVKGRFTISRDNSKNTLYLQMNSLRAEDTAVYYCRWAYWELLPDYYYGMDVWGQGTTVTVSSASGGSGDKTHTCPPCPAPELLGGPSVFLFPPKPKDTLMISRTPEVTCVVVDVSHEDPEVKFNWYVDGVEVHNAKTKPREEQYNSYVVSVLTVLHQDWLNGKEYKCKVSNKALPAPIEKTISKAKGQPREPQVYTLPPCRDELTKNQVSLWCLVKGFYPSDIAVEWESNGQPENNYKTTPPVLDSDGSFFKKLTVDKSRWQQGNVFSCSVLHEALHSHYTQKSLSLSPG
chain 2: EIVLTQSPGTLSLSPGETATLSCRASQSFSSDLAWYQQKPGQAPRLLIYGASSRATGIPDRFSGSGSGTDFTLTISRLEPADFAVYYCQQYGSSPPVTFGGGTKVEIKGGSSGDTVMTQSPLSLPVTPGEPASISCRSSQSLLNSNGYNYLDWYVQKPGQSPQLLIYLGSNRASGVPDRFSGSGSGTDFTLKISRVEAEDVGVYYCMQPLQTPLFTFGPGTKVEIKGGGGSGGSGSGGGGSASGSGQVTLRESGPALVKPTQTLTLTCTFSGFSLSTRGVCVSWIRQPPGKALEWLAFIDWDDDKYYNTSLKTRLTISKDTSKNQVVLTMTNVHPVDTATYYCARISSHHGSSWCTTFDYWGQGALVTVSAGGSSGEVQLVESGGGLIQPGGSLRLSCAASGVIVSYNYMNWVRQAPGKGLEWVSVIYSGGSTFYADSVRGRFTISRDNSKNTLYLQMNSLRAEDTAVYYCARDLGPAGAFDIWGLGTMVTVSSASGGSGDKTHTCPPCPAPELLGGPSVFLFPPKPKDTLMISRTPEVTCVVVDVSHEDPEVKFNWYVDGVEVHNAKTKPREEQYNSYVVSVLTVLHQDWLNGKEYKCKVSNKALPAPIEKTISKAKGQPREPQVCTLPPSRDELTKNQVSLSCAVKGFYPSDIAVEWESNGQPENNYKTTPPVLDSDGSFFLVSKLTVDKSRWQQGNVFSCSVLHEALHSHYTQKSLSLSPG
With B3 the “IC50, pseudovirus neutralization” value [6] was 20.5 ng/mL, the “IC80, pseudovirus neutralization” value [6] was 72.7 ng/mL and the “IC50, pseudovirus neutralization” value [7] was 23.5 ng/mL. The “IC80, pseudovirus neutralization” value [7] was 51.8 ng/mL.

B4: MX1089 (antibody)
chain 1: B3 chain 1
chain 2: DTVMTQSPLSLPVTPGEPASISCRSSQSLLNSNGYNYLDWYVQKPGQSPQLLIYLGSNRASGVPDRFSGSGSGTDFTLKISRVEAEDVGVYYCMQPLQTPLFTFGPGTKVEIKGGSSGEIVLTQSPGTLSLSPGERATLSCRASQSVSSSYLAWYQQKPGQAPRLLIYSASSRATGIPDRFSGSGSGTDFTLTISRLEPEDFAVYFCQQYVGLTGWTFGQGTKVEIKGGGGSGGSGSGGGGSASGSGQMQLVQSGPEVKKPGTSVKVSCKASGFTFTSSAVQWVRQRQRLEWIGWIVVGSGNTNYAQKFQERVTITRDMSTSTAYMELSSLRSEDTAVYYCAAPNCSNVVCYDGFDIWGQGTMVTVSSGGSSGQVTLRESGPALVKPTQTLTLTCTFSGFSLSTRGVCVSWIRQPPGKALEWLAFIDWDDDKYYNTSLKTRLTISKDTSKNQVVLTMTNVHPVDTATYYCARISSHHGSSWCTTFDYWGQGALVTVSAASGGSGDKTHTCPPCPAPELLGGPSVFLFPPKPKDTLMISRTPEVTCVVVDVSHEDPEVKFNWYVDGVEVHNAKTKPREEQYNSYVVSVLTVLHQDWLNGKEYKCKVSNKALPAPIEKTISKAKGQPREPQVCTLPPSRDELTKNQVSLSCAVKGFYPSDIAVEWESNGQPENNYKTTPPVLDSDGSFFLVSKLTVDKSRWQQGNVFSCSVLHEALHSHYTQKSLSLSPG
For B4, the “IC50, pseudovirus neutralization” value [6] was 36.8 ng/mL, the “IC80, pseudovirus neutralization” value [6] was 68.7 ng/mL and the “IC50, pseudovirus neutralization” value [7] was 13.2 ng/mL. The “IC80, pseudovirus neutralization” value [7] was 29.4 ng/mL.

B5: MX1018 (antibody)
chain: EIVMTQSPAILSVSPGERATLSCRASQSVAINLAWYQQKPGQAPRLLIYAASSRATGIPGRFSGSGSETNFTLTISSLQSGDFAVYYCQQYITWPPSYTFGQGTKLEIKGGSSGEIVMTQSPAILSVSPGERATLSCRASQSVAINLAWYQQKPGQAPRLLIYAASSRATGIPGRFSGSGSETNFTLTISSLQSGDFAVYYCQQYITWPPSYTFGQGTKLEIKGGGGSGGSGSGGGGSASGSGEVQLVESGGALIQPGGSLRLSCAASGIIVSANYMSWVRQAPGKGLEWVSVIYSGGSTFYADSVKGRFTISRDNSKNTLYLEMNSLRAEDTAVYYCARDAPILGVSDWGQGTLVTVSSGGSSGEVQLVESGGALIQPGGSLRLSCAASGIIVSANYMSWVRQAPGKGLEWVSVIYSGGSTFYADSVKGRFTISRDNSKNTLYLEMNSLRAEDTAVYYCARDAPILGVSDWGQGTLVTVSSASGGSGDKTHTCPPCPAPELLGGPSVFLFPPKPKDTLMISRTPEVTCVVVDVSHEDPEVKFNWYVDGVEVHNAKTKPREEQYNSYVVSVLTVLHQDWLNGKEYKCKVSNKALPAPIEKTISKAKGQPREPQVYTLPPSRDELTKNQVSLTCLVKGFYPSDIAVEWESNGQPENNYKTTPPVLDSDGSFFKKLTVDKSRWQQGNVFSCSVLHEALHSHYTQKSLSLSPG
B5 was tested, and the “IC50, pseudovirus neutralization” value [1] was 51.3 ng/mL, the “IC80, pseudovirus neutralization” value [1] was 98.3 ng/mL and the “IC80, pseudovirus neutralization” value [2] was 58.1 ng/mL. The “IC50, pseudovirus neutralization” value [3] was 51.3 ng/mL and the “IC80, pseudovirus neutralization” value [3] was 98.3 ng/mL.

B6: E8 (antibody, V domains shown)
VH: QVTLRESGPALVKPTQTLTLTCTFSGFSLSTRGVCVSWIRQPPGKALEWLAFIDWDDDKYYNTSLKTRLTISKDTSKNQVVLTMTNVHPVDTATYYCARISSHHGSSWCTTFDYWGQGALVTVSA
VL: DTVMTQSPLSLPVTPGEPASISCRSSQSLLNSNGYNYLDWYVQKPGQSPQLLIYLGSNRASGVPDRFSGSGSGTDFTLKISRVEAEDVGVYYCMQPLQTPLFTFGPGTKVEIK
B6 was tested, and the “IC50, pseudovirus neutralization” value [4] was 8.77 ng/mL, the “IC80, pseudovirus neutralization” value [4] was 20.7 ng/mL and the “IC50, pseudovirus neutralization” value [5] was 6.81 ng/mL. The “IC80, pseudovirus neutralization” value [5] was 33.3 ng/mL.

B7: MX1020 (antibody)
chain: DTVMTQSPLSLPVTPGEPASISCRSSQSLLNSNGYNYLDWYVQKPGQSPQLLIYLGSNRASGVPDRFSGSGSGTDFTLKISRVEAEDVGVYYCMQPLQTPLFTFGPGTKVEIKGGSSGDTVMTQSPLSLPVTPGEPASISCRSSQSLLNSNGYNYLDWYVQKPGQSPQLLIYLGSNRASGVPDRFSGSGSGTDFTLKISRVEAEDVGVYYCMQPLQTPLFTFGPGTKVEIKGGGGSGGSGSGGGGSASGSGQVTLRESGPALVKPTQTLTLTCTFSGFSLSTRGVCVSWIRQPPGKALEWLAFIDWDDDKYYNTSLKTRLTISKDTSKNQVVLTMTNVHPVDTATYYCARISSHHGSSWCTTFDYWGQGALVTVSAGGSSGQVTLRESGPALVKPTQTLTLTCTFSGFSLSTRGVCVSWIRQPPGKALEWLAFIDWDDDKYYNTSLKTRLTISKDTSKNQVVLTMTNVHPVDTATYYCARISSHHGSSWCTTFDYWGQGALVTVSAASGGSGDKTHTCPPCPAPELLGGPSVFLFPPKPKDTLMISRTPEVTCVVVDVSHEDPEVKFNWYVDGVEVHNAKTKPREEQYNSYVVSVLTVLHQDWLNGKEYKCKVSNKALPAPIEKTISKAKGQPREPQVYTLPPSRDELTKNQVSLTCLVKGFYPSDIAVEWESNGQPENNYKTTPPVLDSDGSFFKKLTVDKSRWQQGNVFSCSVLHEALHSHYTQKSLSLSPG
B7 was tested, and the “IC50, pseudovirus neutralization” value [1] was 7.78 ng/mL, the “IC80, pseudovirus neutralization” value [1] was 17.4 ng/mL and the “IC50, pseudovirus neutralization” value [2] was 3.6 ng/mL. For the same binder, the “IC80, pseudovirus neutralization” value [2] was 7.94 ng/mL, the “IC50, pseudovirus neutralization” value [3] was 7.78 ng/mL and the “IC80, pseudovirus neutralization” value [3] was 17.4 ng/mL.
